Laboratory results: US20220168221A1 (priority 2020, published 2022)

How the values were obtained:
Coccidioides = conditions: cited from earlier work
[1] = Stability of nikZ in aqueous solution (DiW); format: physicochemical; conditions: during 96 hours, 20-25° C.
[2] = Mouse weights, drinking and clinical observation in Study 1; conditions: for signs of distress (ruffled fur, apathy, severe agitation): in general, daily examination
[3] = Toxicology study in mice, oral gavage q.d. for 7 days; format: in vivo, mouse; conditions: 2000 mg/kg/day q.d. by oral gavage, after 7 days
[4] = test system: Coccidioides posadasii strain Silveira (ATCC 28868); format: in vivo
[5] = IP 1000 mg/kg BID, injected as suspension

Structure (SMILES) | MIC level (Coccidioides; reports and expectations) | anticipated therapeutic level (Coccidioides; sometimes cited) | potency of DiW in an in vitro system [1] | decrease in drinking on the last day ([2]; DiW 2000 mpk/day group) | behaviour immediately after application [2, 5] | recovery after application [2, 5] | signs of distress (ruffled fur, apathy, severe agitation) [2] | signs of abnormality or distress [3] | clinical outcome ([4]; 5 days therapy) | fungal loads in lungs vs water ([4]; all doses (200, 600, 2000 mg/kg/day), DiW or IP BID) | fungal loads in livers vs water ([4]; all doses, DiW or IP BID) | fungal loads in spleens vs water ([4]; all doses, DiW or IP BID) | fungal loads in livers compared with FCZ 100 mg/kg ([4]; several doses) | fungal loads in lungs compared with FCZ 100 mg/kg ([4]; several doses)
C[C@@H]([C@H](N)C(=O)N[C@H](C(=O)O)[C@H]1O[C@@H](n2ccc(=O)[nH]c2=O)[C@H](O)[C@@H]1O)[C@H](O)c1ccc(O)cn1 [nikZ, nikkomycin Z] | about 63 ng/ml | 65 ng/mL | essentially unchanged | about 10% | apathetic and showed ruffled fur | back to normal within an hour | did not show signs of distress | no signs of abnormality or distress | essentially eradicating the disease | significantly decreased | significantly decreased | significantly decreased | significantly more anti-fungal | significantly more anti-fungal
OC(Cn1cncn1)(Cn1cncn1)c1ccc(F)cc1F [FCZ, fluconazole, reference compound] | – | – | – | – | – | – | did not show signs of distress | – | – | – | – | – | – | –
